For at least one entry, the source does not settle the construct or the ends of the probe. At least one verdict was read from the data and is not stated in words by the source. Protein sequences can lack the tags named with them.
Molecular target: T1, MadR (Mycobacterium tuberculosis H37Rv) (UniProt P9WMD9)
T1 sequence (looked up, limits assumed): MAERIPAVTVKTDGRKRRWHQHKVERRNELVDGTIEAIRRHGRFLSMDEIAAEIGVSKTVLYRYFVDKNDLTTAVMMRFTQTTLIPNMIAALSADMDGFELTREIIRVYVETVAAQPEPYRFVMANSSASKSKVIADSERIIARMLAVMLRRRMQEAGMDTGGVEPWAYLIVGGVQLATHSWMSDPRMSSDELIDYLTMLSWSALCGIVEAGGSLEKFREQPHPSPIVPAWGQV
Experiment: EMSA
Details: recombinant protein

Measured: binding result

CAGTTATCTGTGTCTAATGGTTGCAGTCAATATATCTGTGTCTCTCGGTA (double strand) [desA1 promoter -19/+31]
binds: 5 uM C14:0-CoA | 5 uM C16:0 fatty acid | 5 uM C16:1-CoA | 5 uM C16:1 fatty acid | 5 uM C18:0 fatty acid | 5 uM C18:1-CoA | 5 uM C18:1 fatty acid | 5 uM C18:2-CoA | 5 uM C18:2 fatty acid | 5 uM C18:3-CoA | 5 uM C18:3 fatty acid | 5 uM C20:0 fatty acid | 5 uM C22:0 fatty acid | 5 uM C24:0 fatty acid

TTCACGAAATCTGTGTATGCGAGTTACAGTTACCGCATGGCACAGAAACC (double strand) [desA2 promoter -36/+14]
binds: 5 uM C14:0-CoA | 5 uM C16:0 fatty acid | 5 uM C16:1-CoA | 5 uM C16:1 fatty acid | 5 uM C18:0 fatty acid | 5 uM C18:1-CoA | 5 uM C18:1 fatty acid | 5 uM C18:2-CoA | 5 uM C18:2 fatty acid | 5 uM C18:3-CoA | 5 uM C18:3 fatty acid | 5 uM C20:0 fatty acid | 5 uM C22:0 fatty acid | 5 uM C24:0 fatty acid
